For part of its entries the source gives two or more results. The list is limited to them. There may be further records. The records of an entry do not match, cause unknown; some may be repeats, others may stem from another dose, organism or construct than stated.
Tests used:
Candida albicans = assay: Fungal growth inhibition, C. albicans (library hits, Tables A and B); type: cell-based; settings: strain not stated; for MIC C. albicans (Table A): Table A in S1 File
Candida krusei ATCC 6258 = assay: Fungal growth inhibition, C. krusei; type: cell-based; settings: Table B in S1 File, strain not stated
Source text: (§1) Fungal isolates were purchased from American Type Culture Collection, except for C. glabrata strain Cg003, which was kindly provided by Julius Subik, Comenius University in Bratislava, Slovak Republic. Cg003 is a clinical isolate, characterized to be resistant to fluconazole and itraconazole due to overexpression of the multidrug resistance efflux pumps Cdr1p and Cdr2p. Saccharomyces cerevisiae (ATCC 9763), Candida albicans (ATCC 90028), Candida albicans (SC5314), Candida glabrata (ATCC 90030), Candida glabrata (Cg003) and Candida krusei (ATCC 6258) were grown in Sabouraud broth (40 g/L D-glucose, 10 g/L peptone, pH 5.6) or YPD (10 g/L yeast extract, 20 g/L Bacto-peptone, 20 g/L glucose) medium to mid log phase, aliquoted into 20% (v/v) glycerol and cryopreserved as stocks at -80°C. For each growth assay, cells from these stocks were diluted in sterile water to OD600 = 0.025, which corresponds to a final starting inoculum of 0.5–2.5 x 10^5 CFU/mL. Growth assays were carried out by pipetting 3 μL compound dissolved in DMSO, 100 μL cell suspension and 97 μL 2 x RPMI media (20.8 g/L RPMI-1640 (Sigma-Aldrich catalog number R6504) 330 mM MOPS, 36 g/L glucose) into a microtiter plate and incubating for 24 h at 34°C, followed by OD measurement at 490 nm. […]

C. parapsilosis = assay: Fungal growth inhibition, C. parapsilosis; type: cell-based, Candida parapsilosis; settings: Table B in S1 File, strain not stated
Source text: as §1

| Compound | MIC C. albicans (Table A) (Candida albicans) | MIC C. krusei (Table B) (Candida krusei ATCC 6258) | MIC C. parapsilosis (Table B) (C. parapsilosis) | MIC C. albicans (Table B) (Candida albicans; Table B in S1 File) |
| --- | --- | --- | --- | --- |
| O=C(NC1CCCc2c1[nH]c1ccc(Br)cc21)c1ccccc1F (centres unmarked) | > 150 µM and nor exhibited antifungal activity | – | – | – |
| O=C(NC1CCCc2c1[nH]c1ccc(Br)cc21)c1ccccn1 (centres unmarked) | > 150 µM and nor exhibited antifungal activity | – | – | – |
| CC1Cc2c([nH]c3cc(Cl)c(F)cc23)C2(N1)C(=O)Nc1ccc(Cl)cc12 (centres unmarked) | – | > 75 µM and does not have antifungal activity | > 75 µM and does not have antifungal activity | > 75 µM and does not have antifungal activity |

From paper PMC5749684, “Tetrahydrocarbazoles are a novel class of potent P-type ATPase inhibitors with antifungal activity” (PLoS ONE, 2018)
